A mixed list of measured activities; the numbers were collected in NIAID ChemDB.

Shared fields: tests in culture; agent: Rhinovirus; read-out: inhibition

Inhibition is in % at the dose shown (toxicity tests: loss of growth or viability).

smiles,method,strain,cells,tested at,value
O=S(=O)(O)CO,cytopathic effect,,Human embryonic lung cells,10 µg/mL,0%
Cc1cccc(N2CCN(c3ccc(Br)nn3)CC2)c1,,17 serotypes,,0.024 µg/mL,18%
O=S(=O)([O-])c1ccc(NS(=O)(=O)c2ccccc2)c2c(S(=O)(=O)[O-])cccc12,cytopathic effect,,Human amnion AV3 cells,10 µg/mL,43%
Cc1cc(Cl)ccc1Cn1cnc2c(N(C)C)nc(C(F)(F)F)nc21,plaque count,Serotype 15,M-HELA,8 µM,11%
O=S(=O)([O-])c1cc(S(=O)(=O)[O-])c2cc(NS(=O)(=O)c3ccccc3)ccc2c1,cytopathic effect,,Human amnion AV3 cells,50 µg/mL,0%
O=C(O)Cc1csc(/N=C2\SC[C@@H]3Cc4ccccc4CN23)n1,cytopathic effect,Serotype 13,MRC-5,60 µg/mL,80–100%
O=S(=O)([O-])c1cccc(O)c1,cytopathic effect,,Human embryonic lung cells,50 µg/mL,0%
CCOC(=O)c1csc(N2CCN(Cc3cc(C)ccc3C)CC2)n1,,100 serotypes,,10 µg/mL,71%
N#Cc1cc([N+](=O)[O-])ccc1Oc1ccc(Cl)c(Cl)c1,,TYPE 1A,VERO,25 µg/mL,87%
CN(C)c1nc(C(F)(F)F)nc2c1ncn2Cc1ccc(Cl)cc1Cl,plaque count,Serotype 18,M-HELA,8 µM,32%
FC(F)(F)c1cccc(C2CCN(c3ccc(Br)nn3)C2)c1,,100 serotypes,,5.6 µg/mL,71%
O=C(Nc1c(S(=O)(=O)[O-])cc2cc(S(=O)(=O)[O-])cc(O)c2c1O)c1ccccc1,cytopathic effect,,Human embryonic lung cells,10 µg/mL,30%
CN(C)c1nc(C(F)(F)F)nc2c1ncn2Cc1ccc(Cl)c(Cl)c1,plaque count,Serotype 13,M-HELA,8 µM,23%
CC1(C)COC(c2ccc(OCCN3CCN(c4ccc(Cl)nn4)CC3)cc2)=N1,,100 serotypes,,20 µg/mL,53%
CN(C)c1nc(C(F)(F)F)nc2c1ncn2Cc1ccc(S(C)(=O)=O)cc1,plaque count,Serotype 5,M-HELA,8 µM,40%
CCOc1cc(O)c(C(=O)/C=C/c2ccc(OC)cc2)c(OC)c1,,100 serotypes,,0.022 µg/mL,18%
CN(C)c1nc(C(F)(F)F)nc2c1ncn2Cc1ccc(Cl)c(NC=O)c1,plaque count,Serotype 3,M-HELA,8 µM,40%
CCCCCCCCCCCCCCOc1ccc(C(C)=O)o1,,100 serotypes,,0.5 µg/mL,53%

For reference, 2 entries again:

smiles | method | strain | cells | tested at | value
CCCCCCCCCCCCCCOc1ccc(C(C)=O)o1 |  | 100 serotypes |  | 0.5 µg/mL | 53%
O=C(O)Cc1csc(/N=C2\SC[C@@H]3Cc4ccccc4CN23)n1 | cytopathic effect | Serotype 13 | MRC-5 | 60 µg/mL | 80–100%

Blank or dashed fields: not listed here. Two numbers with a dash give a range or band. Conditions beyond the fields shown may differ between rows.